From PMC4207998 (The Journal of Biological Chemistry, 2014)

Molecular target: T1, α-toxin (AT), parental construct of the ProteOn study (Staphylococcus aureus (deposit 4U6V: …))
T1 chain: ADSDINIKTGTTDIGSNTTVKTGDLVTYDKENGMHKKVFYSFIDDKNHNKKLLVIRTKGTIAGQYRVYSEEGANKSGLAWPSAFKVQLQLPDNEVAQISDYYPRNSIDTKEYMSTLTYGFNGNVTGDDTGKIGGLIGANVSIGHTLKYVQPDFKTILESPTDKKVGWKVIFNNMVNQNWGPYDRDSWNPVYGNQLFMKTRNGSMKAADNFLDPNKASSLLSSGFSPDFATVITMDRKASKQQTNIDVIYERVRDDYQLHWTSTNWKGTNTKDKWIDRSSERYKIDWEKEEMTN
Assay: SPR

B1: LC10 (antibody, V domains shown)
VH: EVQLVESGGGLVQPGGSLRLSCAASGFTFSSHDMHWVRQATGKGLEWVSGIGTAGDTYYPDSVKGRFTISRENAKNSLYLQMNSLRAGDTAVYYCARDRYSPTGHYYGMDVWGQGTTVTVSS
VL: DIQMTQSPSTLSASVGDRVTITCRASQSISSWLAWYQQKPGKAPKLLIYKASSLESGVPSRFSGSGSGTEFTLTISSLQPDDFATYYCKQYADYWTFGQGTKVEIK
notes: source: generated at MedImmune; copies: 2 + 2
Kd: 10 pM
